## Single amino acid changes in Zika NS2B-NS3 and viral growth

Values reported by Ni et al. 2025 (doi:10.1038/s41467-025-63602-z).

Chain scanned (Zika virus MR766; NS2B from position 2 to 131, then the start of NS3):
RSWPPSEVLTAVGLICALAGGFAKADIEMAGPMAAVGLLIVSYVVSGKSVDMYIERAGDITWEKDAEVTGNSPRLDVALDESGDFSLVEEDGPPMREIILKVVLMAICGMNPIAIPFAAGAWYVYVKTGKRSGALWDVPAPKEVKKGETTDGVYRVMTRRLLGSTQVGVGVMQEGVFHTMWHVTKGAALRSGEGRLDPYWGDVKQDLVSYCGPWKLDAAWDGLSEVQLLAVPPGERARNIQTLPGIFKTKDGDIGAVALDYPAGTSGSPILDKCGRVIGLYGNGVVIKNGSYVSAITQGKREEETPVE

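Mutant virus pools were grown in human Huh-7.5 cells. The effect is the change in frequency of a mutant, normalised to wild type, as a mean of three replicate libraries (two for positions 207-308).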

Values are log2 effects on growth: 0 is wild type, lower means poorer growth. Each entry names the wild-type residue, its position and the residue put in its place. All changes here are to arginine. Position 1 still belongs to NS2A. In the paper, -1 or higher counts as tolerated. The region was split into three libraries (1-103, 104-206, 207-308). Six mutants with high scores were retested singly and none clearly outgrew wild type, so positive values are not proof of better growth.

With S2R the assay gave -7.60.
With W3R the assay gave -8.47.
With P4R the assay gave -7.41.
With P5R the assay gave -3.81.
With S6R the assay gave -3.36.
With E7R the assay gave -6.82.
With V8R the assay gave -5.71.
With L9R the assay gave -6.57.
With T10R the assay gave -5.72.
With A11R the assay gave -6.70.
With V12R the assay gave -6.86.
With G13R the assay gave -7.11.
With L14R the assay gave -7.65.
With I15R the assay gave -7.91.
With C16R the assay gave -8.53.
With A17R the assay gave -6.93.
With L18R the assay gave -8.52.
With A19R the assay gave -8.18.
With G20R the assay gave -5.15.
With G21R the assay gave -8.36.
With F22R the assay gave -8.01.
With A23R the assay gave -5.47.
With K24R the assay gave -1.08.
With A25R the assay gave -4.15.
With D26R the assay gave -3.76.
With I27R the assay gave -2.84.
With E28R the assay gave -3.29.
With M29R the assay gave -7.16.
With A30R the assay gave -2.72.
With G31R the assay gave -7.86.
With P32R the assay gave -7.75.
With M33R the assay gave -7.26.
With A34R the assay gave -6.42.
With A35R the assay gave -7.07.
With V36R the assay gave -6.59.
With G37R the assay gave -7.63.
With L38R the assay gave -7.43.
With L39R the assay gave -6.30.
With I40R the assay gave -6.22.
With V41R the assay gave -6.81.
With S42R the assay gave -5.56.
With Y43R the assay gave -7.19.
With V44R the assay gave -7.20.
With V45R the assay gave -7.19.
With S46R the assay gave -5.25.
With G47R the assay gave -6.16.
With K48R the assay gave 0.67.
With S49R the assay gave -5.80.
With V50R the assay gave -5.43.
With D51R the assay gave -7.42.
With M52R the assay gave -7.82.
With Y53R the assay gave -6.01.
With I54R the assay gave -7.78.
With E55R the assay gave -7.67.
With A57R the assay gave -6.80.

The last 4 entries again:

substitution,effect (log2)
Y53R,-6.01
I54R,-7.78
E55R,-7.67
A57R,-6.80